The list shows a part of the results, in another mix than the full data. Measured potencies and affinities stand elsewhere. The source made the active and inactive calls. No stated cut-off is given here; in the data, inconclusive means inhibition above about 29% without an active follow-up result; inactive means below that.
target: Genome polyprotein (Dengue virus type 2 (strain 16681-PDK53)) (UniProt P29991); test: Dengue-2 NS5 methyltransferase inhibitors, primary screen, biochemical, confirmation dose response (AID 588689); settings: Dengue-2 NS5 methyltransferase capping enzyme assay, at 25 µM, active compounds read high

Sequences of proteins named here, by UniProt entry; tags and fusion partners are left off.
UniProt P29991, whole entry: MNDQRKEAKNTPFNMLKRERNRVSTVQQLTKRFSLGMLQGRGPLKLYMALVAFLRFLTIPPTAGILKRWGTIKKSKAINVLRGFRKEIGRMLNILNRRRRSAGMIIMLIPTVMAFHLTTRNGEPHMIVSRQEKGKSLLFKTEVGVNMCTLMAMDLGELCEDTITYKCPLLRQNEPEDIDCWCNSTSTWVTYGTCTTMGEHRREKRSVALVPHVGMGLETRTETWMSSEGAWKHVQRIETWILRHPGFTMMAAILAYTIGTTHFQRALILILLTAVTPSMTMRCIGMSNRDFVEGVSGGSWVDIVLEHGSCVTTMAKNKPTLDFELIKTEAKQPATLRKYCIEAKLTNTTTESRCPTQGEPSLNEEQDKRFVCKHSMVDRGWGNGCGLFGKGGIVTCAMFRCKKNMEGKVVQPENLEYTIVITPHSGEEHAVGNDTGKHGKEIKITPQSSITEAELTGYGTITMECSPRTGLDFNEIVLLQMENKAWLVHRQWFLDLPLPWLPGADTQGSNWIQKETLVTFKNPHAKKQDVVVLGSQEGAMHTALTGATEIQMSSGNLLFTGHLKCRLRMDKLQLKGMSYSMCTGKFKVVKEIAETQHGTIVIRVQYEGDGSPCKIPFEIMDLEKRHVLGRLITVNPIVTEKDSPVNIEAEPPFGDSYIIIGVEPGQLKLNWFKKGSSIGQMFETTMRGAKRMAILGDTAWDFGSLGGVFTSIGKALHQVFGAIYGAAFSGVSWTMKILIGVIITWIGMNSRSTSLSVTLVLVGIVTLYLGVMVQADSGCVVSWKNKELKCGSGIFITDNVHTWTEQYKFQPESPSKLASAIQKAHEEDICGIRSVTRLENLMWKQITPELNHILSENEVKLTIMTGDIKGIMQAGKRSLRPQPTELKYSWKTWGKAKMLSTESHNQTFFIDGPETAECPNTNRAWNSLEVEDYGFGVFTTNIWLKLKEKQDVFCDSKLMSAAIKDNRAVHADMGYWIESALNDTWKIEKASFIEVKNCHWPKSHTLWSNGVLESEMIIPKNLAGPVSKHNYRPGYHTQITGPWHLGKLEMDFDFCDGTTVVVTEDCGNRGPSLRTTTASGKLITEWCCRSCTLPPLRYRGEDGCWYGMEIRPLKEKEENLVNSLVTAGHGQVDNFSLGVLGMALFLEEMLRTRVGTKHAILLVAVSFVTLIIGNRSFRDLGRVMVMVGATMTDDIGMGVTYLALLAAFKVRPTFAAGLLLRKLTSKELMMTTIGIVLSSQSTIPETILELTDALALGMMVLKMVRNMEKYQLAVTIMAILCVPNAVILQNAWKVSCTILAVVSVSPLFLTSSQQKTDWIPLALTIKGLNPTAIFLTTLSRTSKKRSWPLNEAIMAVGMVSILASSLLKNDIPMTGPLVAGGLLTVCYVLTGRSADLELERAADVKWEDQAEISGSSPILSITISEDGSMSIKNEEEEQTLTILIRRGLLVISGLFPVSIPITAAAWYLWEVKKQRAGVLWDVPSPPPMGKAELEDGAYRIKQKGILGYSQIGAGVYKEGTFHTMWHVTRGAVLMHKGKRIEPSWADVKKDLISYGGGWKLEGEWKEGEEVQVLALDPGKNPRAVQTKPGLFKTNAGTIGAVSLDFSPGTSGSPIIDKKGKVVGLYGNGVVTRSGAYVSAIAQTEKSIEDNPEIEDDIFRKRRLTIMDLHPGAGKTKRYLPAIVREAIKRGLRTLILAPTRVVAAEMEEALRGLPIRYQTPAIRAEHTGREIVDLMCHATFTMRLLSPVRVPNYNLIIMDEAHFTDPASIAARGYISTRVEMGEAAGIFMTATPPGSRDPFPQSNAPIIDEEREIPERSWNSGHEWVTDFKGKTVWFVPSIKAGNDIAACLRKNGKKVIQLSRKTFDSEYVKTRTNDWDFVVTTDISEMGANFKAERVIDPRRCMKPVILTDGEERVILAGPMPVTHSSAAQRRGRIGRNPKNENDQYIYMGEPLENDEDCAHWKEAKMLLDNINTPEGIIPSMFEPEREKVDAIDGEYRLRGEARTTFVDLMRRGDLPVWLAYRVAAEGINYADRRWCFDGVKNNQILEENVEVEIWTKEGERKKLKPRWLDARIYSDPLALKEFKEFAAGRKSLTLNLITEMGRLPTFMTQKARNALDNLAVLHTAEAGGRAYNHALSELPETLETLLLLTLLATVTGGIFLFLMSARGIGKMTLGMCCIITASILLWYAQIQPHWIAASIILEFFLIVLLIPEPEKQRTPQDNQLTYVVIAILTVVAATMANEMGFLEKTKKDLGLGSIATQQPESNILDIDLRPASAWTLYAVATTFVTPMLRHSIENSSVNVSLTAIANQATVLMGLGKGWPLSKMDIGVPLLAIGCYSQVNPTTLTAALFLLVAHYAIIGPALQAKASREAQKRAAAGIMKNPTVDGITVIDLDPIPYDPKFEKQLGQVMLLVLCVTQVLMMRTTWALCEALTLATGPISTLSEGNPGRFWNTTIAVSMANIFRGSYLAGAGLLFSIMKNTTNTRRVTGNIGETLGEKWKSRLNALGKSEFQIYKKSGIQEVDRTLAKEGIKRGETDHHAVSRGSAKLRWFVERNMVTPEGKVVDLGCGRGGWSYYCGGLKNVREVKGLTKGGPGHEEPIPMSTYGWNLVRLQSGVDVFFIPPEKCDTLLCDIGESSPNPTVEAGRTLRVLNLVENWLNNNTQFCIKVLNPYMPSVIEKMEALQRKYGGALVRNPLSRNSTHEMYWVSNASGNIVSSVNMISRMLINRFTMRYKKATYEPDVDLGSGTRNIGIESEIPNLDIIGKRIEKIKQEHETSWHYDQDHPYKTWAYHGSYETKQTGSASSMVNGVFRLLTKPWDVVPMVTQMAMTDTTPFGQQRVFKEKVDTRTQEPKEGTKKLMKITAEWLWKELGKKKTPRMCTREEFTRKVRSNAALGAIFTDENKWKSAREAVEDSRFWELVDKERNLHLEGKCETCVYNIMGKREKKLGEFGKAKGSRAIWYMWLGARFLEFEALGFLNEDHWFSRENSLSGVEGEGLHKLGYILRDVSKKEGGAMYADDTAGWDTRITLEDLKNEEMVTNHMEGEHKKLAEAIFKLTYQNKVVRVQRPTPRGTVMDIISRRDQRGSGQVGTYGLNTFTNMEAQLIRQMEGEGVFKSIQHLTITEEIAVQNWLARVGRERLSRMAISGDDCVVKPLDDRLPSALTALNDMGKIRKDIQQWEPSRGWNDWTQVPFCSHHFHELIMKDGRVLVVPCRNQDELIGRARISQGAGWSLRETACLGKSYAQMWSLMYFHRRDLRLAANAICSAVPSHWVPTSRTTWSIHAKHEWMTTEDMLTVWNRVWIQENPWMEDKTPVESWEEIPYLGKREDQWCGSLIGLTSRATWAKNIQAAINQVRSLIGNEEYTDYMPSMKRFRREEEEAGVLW

Compound | inhibition
CP(=O)(Nc1ccc(SC(F)(F)F)cc1)Oc1ccccc1 (stereo not given) | inactive: -2.55%
CCCOc1ccc(NP(C)(=O)Oc2ccc(Cl)cc2)cc1 (stereo not given) | inactive: 0%
COc1ccccc1OP(C)(=O)Nc1c(C)cccc1C (stereo not given) | inactive: -1.61%
CN1CCCCC1COC(=O)C1(O)c2ccccc2CCc2ccccc21 (stereo not given) | inactive: -3.63%
O=[N+]([O-])c1cc([N+](=O)[O-])c(Nc2nnnn2CCO)c([N+](=O)[O-])c1 | inactive: 15.7%
CC1=C2N=C(C=C3N=C(C(C)=C4[N-][C@@](C)([C@@H]5N=C1[C@](C)(CCC(=O)NC[C@@H](C)OP(=O)([O-])O[C@H]1[C@@H](O)[C@@H](n6cnc7cc(C)c(C)cc76)O[C@@H]1CO)[C@H]5CC(N)=O)[C@@](C)(CC(N)=O)[C@@H]4CCC(N)=O)[C@@](C)(CC(N)=O)[C@@H]3CCC(N)=O)C(C)(C)[C@@H]2CCC(N)=O.[C-]#N.[Co+3] | inactive: -1.49%
CCOC(=O)C(CC)C1=NC(C)(C)Cc2ccccc21.O=[N+]([O-])c1cc([N+](=O)[O-])c(O)c([N+](=O)[O-])c1 (stereo not given) | inactive: -3.92%
Cc1nc2ccc3ccccc3c2s1.O=[N+]([O-])c1cc([N+](=O)[O-])c(O)c([N+](=O)[O-])c1 | inactive: -2.93%
O=[N+]([O-])c1cc([N+](=O)[O-])c(-c2cnn(-c3ccccc3)c2)c([N+](=O)[O-])c1 | inactive: 0.78%
O=[N+]([O-])c1cc([N+](=O)[O-])c(-n2nnc3ccccc32)c([N+](=O)[O-])c1 | inactive: -5.74%
CP(=O)(Nc1cccc(Br)c1)Oc1ccccc1 (stereo not given) | inactive: -7.01%
Cc1cc(C)cc(OP(C)(=O)Nc2ccccn2)c1 (stereo not given) | inactive: -1.39%
Cc1ccc(C)c(NP(C)(=O)Oc2ccccc2)c1 (stereo not given) | inactive: -7.23%
Cc1cc(C)cc(OP(C)(=O)Nc2ccc(C)cc2C)c1 (stereo not given) | inactive: -2.77%
CCOC(=O)c1ccc(NP(C)(=O)Oc2cc(C)cc(C)c2)cc1 (stereo not given) | inactive: -3.19%
COc1ccccc1OP(C)(=O)Nc1cccc(Br)c1 (stereo not given) | inactive: -7.95%
CC1=NCCc2c1[nH]c1ccccc21.O=[N+]([O-])c1cc([N+](=O)[O-])c(O)c([N+](=O)[O-])c1 | inactive: -8.67%
O=C(O)c1cccc(Nc2c([N+](=O)[O-])cc([N+](=O)[O-])cc2[N+](=O)[O-])c1 | inactive: 31.2%
COc1ccccc1OP(C)(=O)Nc1cc(Cl)ccc1C (stereo not given) | inactive: -2.95%
COc1ccc(OP(C)(=O)Nc2cccc(F)c2)cc1 (stereo not given) | inactive: -8.06%
